Test results reported in article PMC7510464 (Bioengineering & Translational Medicine, 2020).

Experiment: general procedure: Fmoc solid-phase peptide synthesis; Rink Amide resin (0.52 mmol g^-1)
Settings: whole synthesis

Row | Substance | final HPLC purity [%]
1 | [Lys]^5-Pol-CP-NH2 | 99
2 | [Lys]^7-Pol-CP-NH2 | 99
3 | [Glu]^3-[Lys]^5-[Glu]^12-Pol-CP-NH2 | 99
4 | [Leu]^5-[Lys]^9-Pol-CP-NH2 | 99
5 | Pol-CP-NH2 | 99
6 | [Lys]^4-Pol-CP-NH2 | 98
7 | [Phe]^9-Pol-CP-NH2 | 99
8 | Des[Leu]^12-Pol-CP-NH2 | 99
9 | [Gly]^1-Pol-CP-NH2 | 99
